The subject of test [1] is H5N1/Vac-3.
The test system of test [2] is recombinant HA protein (H5 HA).

We go through one molecule from publication PMC8113231 (Nature Communications, 2021).

Turning to `CC(C)[C@@H]1NC(=O)[C@H]([C@@H](C)O)NC(=O)[C@H](Cc2ccc(O)cc2)NC(=O)[C@H](Cc2c[nH]cn2)NC(=O)[C@H](CO)N(C)C(=O)[C@H](CO)NC(=O)[C@H](Cc2ccccc2)N(C)C(=O)[C@H](Cc2ccccc2)N(C)C(=O)[C@H](CC(=O)O)NC(=O)CN(C)C(=O)[C@H]([C@@H](C)O)NC(=O)[C@H](Cc2c[nH]c3ccccc23)NC(=O)CSC[C@@H](C(N)=O)NC(=O)[C@H](CCCNC(=N)N)NC(=O)[C@@H]2CCCN2C1=O` [iHA-100], the half-maximal inhibitory concentration (IC50) in test [1] came to 0.036 µM. The dissociation constant Kd in test [2] was 0.0015 µM.
